Article PMC11115230
Construct, isoform or probe ends are uncertain for at least one entry. Where cells or extracts were used, other partners may take part. For part of these data: Protein sequences can lack the tags named with them.

Tests used:
Test in all cases: DNA pull-down
[1] = target: hnRNPK, HeLa nuclear extract (human) (UniProt P61978); details: Pull-down: 20 mM HEPES pH 7.9, 100 mM KCl, 10% glycerol, 0.05% CHAPS, poly(dIdC), oligo B, acetylated BSA, room temperature; protein in an extract; label: 5' biotin-TEG on antisense strand
[2] = target: PARP1, HeLa nuclear extract (human) (UniProt P09874); details: Pull-down: 20 mM HEPES pH 7.9, 100 mM KCl, 10% glycerol, 0.05% CHAPS, poly(dIdC), oligo B, acetylated BSA, room temperature; protein in an extract; label: 5' biotin-TEG on antisense strand
[3] = target: T1, DNTTIP1, PBMC nuclear extract (human) (UniProt Q9H147); details: Pull-down: 20 mM HEPES pH 7.9, 100 mM KCl, 10% glycerol, 0.05% CHAPS, poly(dIdC), oligo B, acetylated BSA, room temperature; protein in an extract; label: 5' biotin-TEG on antisense strand
T1 sequence (looked up, limits assumed): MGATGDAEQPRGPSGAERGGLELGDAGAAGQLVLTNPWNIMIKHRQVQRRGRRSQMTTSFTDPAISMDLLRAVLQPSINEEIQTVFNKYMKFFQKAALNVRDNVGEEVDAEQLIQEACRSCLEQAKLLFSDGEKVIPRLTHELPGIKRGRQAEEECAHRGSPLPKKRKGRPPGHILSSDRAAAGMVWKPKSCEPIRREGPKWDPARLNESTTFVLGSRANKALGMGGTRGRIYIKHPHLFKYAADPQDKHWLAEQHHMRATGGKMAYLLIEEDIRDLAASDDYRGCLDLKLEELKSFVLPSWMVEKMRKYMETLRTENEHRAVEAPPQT

[4] = target: HDAC1, PBMC nuclear extract (human) (UniProt Q13547); details: Pull-down: 20 mM HEPES pH 7.9, 100 mM KCl, 10% glycerol, 0.05% CHAPS, poly(dIdC), oligo B, acetylated BSA, room temperature; protein in an extract; label: 5' biotin-TEG on antisense strand
[5] = target: T2, MIDEAS, PBMC nuclear extract (human) (UniProt Q6PJG2); details: Pull-down: 20 mM HEPES pH 7.9, 100 mM KCl, 10% glycerol, 0.05% CHAPS, poly(dIdC), oligo B, acetylated BSA, room temperature; protein in an extract; label: 5' biotin-TEG on antisense strand
T2 sequence (looked up, limits assumed): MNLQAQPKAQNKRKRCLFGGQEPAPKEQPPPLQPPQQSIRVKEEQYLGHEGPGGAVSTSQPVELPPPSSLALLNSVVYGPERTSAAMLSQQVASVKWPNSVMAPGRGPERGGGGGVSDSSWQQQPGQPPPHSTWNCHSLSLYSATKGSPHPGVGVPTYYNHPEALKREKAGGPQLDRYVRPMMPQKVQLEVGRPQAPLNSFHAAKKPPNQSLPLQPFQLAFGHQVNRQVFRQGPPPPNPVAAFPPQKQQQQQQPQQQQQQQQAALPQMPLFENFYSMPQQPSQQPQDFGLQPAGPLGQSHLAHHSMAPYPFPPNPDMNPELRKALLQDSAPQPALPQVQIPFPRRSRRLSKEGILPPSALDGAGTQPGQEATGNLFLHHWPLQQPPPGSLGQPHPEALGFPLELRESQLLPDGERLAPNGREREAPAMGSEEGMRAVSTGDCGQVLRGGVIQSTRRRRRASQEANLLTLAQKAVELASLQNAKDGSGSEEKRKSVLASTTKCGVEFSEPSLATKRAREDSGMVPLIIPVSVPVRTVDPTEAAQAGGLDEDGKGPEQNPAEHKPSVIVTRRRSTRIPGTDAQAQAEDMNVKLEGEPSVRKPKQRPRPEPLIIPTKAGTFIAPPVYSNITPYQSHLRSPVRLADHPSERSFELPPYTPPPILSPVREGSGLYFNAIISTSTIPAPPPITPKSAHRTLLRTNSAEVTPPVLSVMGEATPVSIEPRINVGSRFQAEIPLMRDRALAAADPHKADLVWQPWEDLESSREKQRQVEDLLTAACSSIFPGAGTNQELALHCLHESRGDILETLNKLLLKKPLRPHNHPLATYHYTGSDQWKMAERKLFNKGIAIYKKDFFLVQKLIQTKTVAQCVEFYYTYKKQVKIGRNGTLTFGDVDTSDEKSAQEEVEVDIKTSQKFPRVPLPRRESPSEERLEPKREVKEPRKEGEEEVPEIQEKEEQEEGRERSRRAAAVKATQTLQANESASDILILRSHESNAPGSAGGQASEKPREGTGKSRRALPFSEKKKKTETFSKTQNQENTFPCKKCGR

[6] = target: T3, DNTTIP1, Jurkat nuclear extract (human) (UniProt Q9H147); details: Pull-down: 20 mM HEPES pH 7.9, 100 mM KCl, 10% glycerol, 0.05% CHAPS, poly(dIdC), oligo B, acetylated BSA, room temperature; protein in an extract; label: 5' biotin-TEG on antisense strand
T3 sequence (looked up, limits assumed): T1 sequence (looked up, limits assumed)

[7] = target: T4, MIDEAS (ELMSAN1/C14orf43), HeLa nuclear extract (human) (UniProt Q6PJG2); details: enhanced in nocodazole-arrested cells; Pull-down: 20 mM HEPES pH 7.9, 100 mM KCl, 10% glycerol, 0.05% CHAPS, poly(dIdC), oligo B, acetylated BSA, room temperature; protein in an extract; label: 5' biotin-TEG on antisense strand
T4 sequence (looked up, limits assumed): T2 sequence (looked up, limits assumed)

[8] = target: T5, NAT10, HeLa nuclear extract (human) (UniProt Q9H0A0); details: enhanced in nocodazole-arrested cells; Pull-down: 20 mM HEPES pH 7.9, 100 mM KCl, 10% glycerol, 0.05% CHAPS, poly(dIdC), oligo B, acetylated BSA, room temperature; protein in an extract; label: 5' biotin-TEG on antisense strand
T5 sequence (looked up, limits assumed): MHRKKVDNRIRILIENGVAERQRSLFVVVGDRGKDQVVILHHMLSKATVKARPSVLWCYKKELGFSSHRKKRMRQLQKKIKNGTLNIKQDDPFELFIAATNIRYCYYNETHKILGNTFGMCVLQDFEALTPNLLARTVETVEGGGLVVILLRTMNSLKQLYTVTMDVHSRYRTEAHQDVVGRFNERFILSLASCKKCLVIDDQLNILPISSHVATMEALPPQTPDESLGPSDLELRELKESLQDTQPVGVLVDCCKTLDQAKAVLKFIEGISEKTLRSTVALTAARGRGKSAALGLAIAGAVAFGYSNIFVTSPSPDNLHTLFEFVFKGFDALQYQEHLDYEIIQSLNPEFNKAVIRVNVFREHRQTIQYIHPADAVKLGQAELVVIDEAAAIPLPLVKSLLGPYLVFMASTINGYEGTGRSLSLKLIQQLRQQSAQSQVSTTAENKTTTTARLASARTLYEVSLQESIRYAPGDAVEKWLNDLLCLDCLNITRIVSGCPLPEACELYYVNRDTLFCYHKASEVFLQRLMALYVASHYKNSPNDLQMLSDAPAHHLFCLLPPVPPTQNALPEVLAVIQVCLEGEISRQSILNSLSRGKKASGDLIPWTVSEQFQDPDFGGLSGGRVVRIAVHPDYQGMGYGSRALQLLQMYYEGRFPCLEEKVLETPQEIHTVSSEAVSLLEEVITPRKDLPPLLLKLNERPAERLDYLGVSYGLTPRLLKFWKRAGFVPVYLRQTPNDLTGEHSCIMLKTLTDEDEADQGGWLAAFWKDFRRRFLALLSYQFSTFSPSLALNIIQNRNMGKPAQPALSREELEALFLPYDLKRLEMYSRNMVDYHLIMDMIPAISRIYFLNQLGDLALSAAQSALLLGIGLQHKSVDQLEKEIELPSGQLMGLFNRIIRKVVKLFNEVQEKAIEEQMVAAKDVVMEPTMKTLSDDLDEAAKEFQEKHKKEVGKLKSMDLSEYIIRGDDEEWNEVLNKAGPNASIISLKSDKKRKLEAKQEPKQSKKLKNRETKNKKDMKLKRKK

[9] = target: T6, AP4, HeLa nuclear extract (human) (UniProt Q01664); details: Pull-down: 20 mM HEPES pH 7.9, 100 mM KCl, 10% glycerol, 0.05% CHAPS, poly(dIdC), oligo B, acetylated BSA, room temperature; protein in an extract; label: 5' biotin-TEG on antisense strand
T6 sequence (looked up, limits assumed): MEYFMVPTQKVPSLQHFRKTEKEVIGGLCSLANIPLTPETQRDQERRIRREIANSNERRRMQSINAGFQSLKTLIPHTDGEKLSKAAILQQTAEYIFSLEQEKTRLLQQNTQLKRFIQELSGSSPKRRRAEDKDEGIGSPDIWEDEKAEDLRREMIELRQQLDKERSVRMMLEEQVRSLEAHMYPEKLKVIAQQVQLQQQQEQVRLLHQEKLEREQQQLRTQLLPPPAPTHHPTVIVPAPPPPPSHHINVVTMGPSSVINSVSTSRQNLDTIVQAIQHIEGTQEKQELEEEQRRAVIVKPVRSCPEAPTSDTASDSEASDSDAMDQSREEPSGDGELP

[10] = target: T7, DNTTIP1, HeLa nuclear extract (human) (UniProt Q9H147); details: enhanced in nocodazole-arrested cells; Pull-down: 20 mM HEPES pH 7.9, 100 mM KCl, 10% glycerol, 0.05% CHAPS, poly(dIdC), oligo B, acetylated BSA, room temperature; protein in an extract; label: 5' biotin-TEG on antisense strand
T7 sequence (looked up, limits assumed): T1 sequence (looked up, limits assumed)

[11] = target: T8, MIDEAS, Jurkat nuclear extract (human) (UniProt Q6PJG2); details: Pull-down: 20 mM HEPES pH 7.9, 100 mM KCl, 10% glycerol, 0.05% CHAPS, poly(dIdC), oligo B, acetylated BSA, room temperature; protein in an extract; label: 5' biotin-TEG on antisense strand
T8 sequence (looked up, limits assumed): T2 sequence (looked up, limits assumed)

[12] = target: HDAC1, HeLa nuclear extract (human) (UniProt Q13547); details: enhanced in nocodazole-arrested cells; Pull-down: 20 mM HEPES pH 7.9, 100 mM KCl, 10% glycerol, 0.05% CHAPS, poly(dIdC), oligo B, acetylated BSA, room temperature; protein in an extract; label: 5' biotin-TEG on antisense strand

Measured: binding result

CTAGAGTAGCAGAGCTCTGGTAGCTAGAAAGCATG / CATGCTTTCTAGCTACCAGAGCTCTGCTACT [Scr (affinity)]
binds: [1] | [2]

CTAGATGCTGCATATAAGCACGTGCTTTTTGCATG / CATGCAAAAAGCACGTGCTTATATGCAGCAT [HIV-USF1KO (affinity)]
binds: [3] | [4] | [5]

CTAGATGCTGCATATAAGCAGCTGCTTTTTGCATG / CATGCAAAAAGCAGCTGCTTATATGCAGCAT [HIV-wt TASHET (affinity)]
binds: [6] | [7] | [3] | [8] | [9] | [4] | [10] | [11] | [12] | [5]
